Compound potency records, mixed from different reports. Data source: NIAID ChemDB in PubChem.

Common to all: tests on isolated targets; agent: HIV-1; target: gp120; endpoint: IC50

ICn: concentration for n% inhibition. Conditions beyond the fields shown may differ between rows. An empty or dashed field is not shown.

{"structure": "O=C(C(=O)N1CCN(C(=O)c2ccccc2)CC1)c1c[nH]c2ccccc12", "strain or isolate": "YU2", "method": "ELISA", "result": "<1 µM"}
{"structure": "CCCCCCCCC[C@H]1CC2CCC3C(C(=O)OCCCCN=C(N)N)[C@@H](C)N=C(N1)N23", "method": "ELISA", "result": "72 µM"}
{"structure": "O=C(O)c1ccc(-c2c3nc(c(-c4ccc(C(=O)O)cc4)c4ccc([nH]4)c(-c4ccc(C(=O)O)cc4)c4nc(c(-c5ccc(C(=O)O)cc5)c5ccc2[nH]5)C=C4)C=C3)cc1", "result": "<60 µg/mL"}
{"structure": "CC[C@H](C)[C@H](NC(=O)[C@@H](N)CC(N)=O)C(=O)N1CCC[C@H]1C(=O)N[C@@H](Cc1c[nH]c2ccccc12)C(=O)N[C@@H](CO)C(=O)N[C@@H](CCC(=O)O)C(=O)N[C@@H](C)C(=O)O", "strain or isolate": "SF2", "method": "ELISA", "result": ">500 µM"}
{"structure": "CC(C)[C@H](NC(=O)[C@@H](N)Cc1ccccc1)C(=O)N[C@@H](Cc1ccccc1)C(=O)N[C@@H](CCCN=C(N)N)C(N)=O", "method": "ELISA", "result": "2630 µM"}
{"structure": "O=C1OCC2OC(O)C(O)C(O)C2OC(=O)c2cc(O)c(O)c(O)c2-c2c(O)c(O)c3oc(=O)c4c(c(O)c(O)c5oc(=O)c2c3c54)-c2c1cc(O)c(O)c2O", "method": "fluorescence", "result": "0.5 µM"}
{"structure": "COC(=O)C(=O)N1CCC[C@@H]1C(=O)N[C@H](Cc1ccccc1)C(=O)OCc1ccccc1", "method": "ELISA", "setting": "10% FBS", "result": ">500 µM"}
{"structure": "COc1ccc(CCNc2nc(N3CCc4cc(OC)c(OC)cc4C3)nc3cc(OC)c(OC)cc23)cc1OC", "method": "ELISA", "result": "32.5 µg/mL"}
{"structure": "C=Cc1c(C)c2cc3nc(cc4[nH]c(cc5nc(cc1[nH]2)C(C)=C5CC)c(C)c4C(=O)O)C(CCC(=O)O)=C3C", "result": ">60 µg/mL"}
{"structure": "CCCCCCCCCC1N=C(N)N2CCCC2=C1C(=O)OCCCCN=C(N)N", "method": "ELISA", "result": ">100 µM"}
{"structure": "CSCC[C@H](NC(=O)[C@@H]1CCCN1C(=O)[C@H](Cc1cnc[nH]1)NC(=O)[C@H](Cc1c[nH]c2ccccc12)NC(=O)[C@@H](N)Cc1ccccc1)C(=O)N[C@@H](Cc1cnc[nH]1)C(=O)N[C@@H](CC(=O)O)C(=O)O", "strain or isolate": "SF2", "method": "ELISA", "result": "68 µM"}
{"structure": "CN1C(=O)C(c2cc(Cl)c(O)c(Cl)c2)NC(=O)[C@@H]2NC(=O)C(c3cc(Cl)c(O)c(Cl)c3)NC(=O)[C@H](NC(=O)C(=O)c3cc(Cl)c(O)c(Cl)c3)Cc3c[nH]c4c(cccc34)-c3cc2cc(c3O)Oc2ccc(cc2)CC1C(=O)NC(C(=O)O)c1ccc(O)cc1", "strain or isolate": "IIIB", "method": "ELISA", "result": "0.31 µM"}
{"structure": "NC(=O)[C@H](CCCN=C(N)N)NC(=O)[C@H](CO)NC(=O)[C@@H](N)Cc1ccccc1", "method": "ELISA", "result": "820 µM"}
{"structure": "C=Cc1c(C)c2cc3[nH]c(cc4nc(cc5nc(cc1[nH]2)C(C)=C5CCC(=O)O)C(CCC(=O)O)=C4C)c(C)c3C=C", "result": "~60 µg/mL"}
{"structure": "NC(=O)[C@H](CCCN=C(N)N)NC(=O)[C@H](CC(=O)O)NC(=O)[C@@H](N)Cc1ccccc1", "method": "ELISA", "result": "170 µM"}
{"structure": "O=C(O)CCC1=C(CC(=O)O)c2cc3nc(cc4[nH]c(cc5[nH]c(cc1n2)c(CC(=O)O)c5CCC(=O)O)c(CC(=O)O)c4CCC(=O)O)C(CC(=O)O)=C3CCC(=O)O", "result": ">60 µg/mL"}
{"structure": "NC(=O)[C@H](CCCN=C(N)N)NC(=O)[C@H](Cc1c[nH]c2ccccc12)NC(=O)[C@@H](N)Cc1ccccc1", "method": "ELISA", "result": "310 µM"}
{"structure": "O=C(C(=O)N1CCN(C(=O)c2ccccc2)CC1)c1c[nH]c2ccccc12", "strain or isolate": "JR-FL", "method": "ELISA", "result": "1.8 µM"}
{"structure": "NC(=O)[C@H](CCCN=C(N)N)NC(=O)[C@@H]1CCCN1C(=O)[C@@H](N)Cc1ccccc1", "method": "ELISA", "result": "340 µM"}
{"structure": "C=CC1=C(C)C2=NC1=CC1=NC(=Cc3[n-]c4c(c3C)=C([O-])[C@H](C(=O)OC)C=4C3=NC(=C2)[C@@H](C)[C@@H]3CCC(=O)OC/C=C(\\C)CCCC(C)CCCC(C)CCCC(C)C)C(CC)=C1C.[Mg+2]", "result": ">60 µg/mL"}
{"structure": "NC(=O)[C@H](CCCN=C(N)N)NC(=O)[C@H](Cc1ccccc1)NC(=O)[C@H](CO)NC(=O)[C@@H](N)Cc1ccccc1", "method": "ELISA", "result": "2990 µM"}
{"structure": "C=Cc1c(C)c2cc3nc(cc4[nH]c(cc5nc(cc1[nH]2)C(C)=C5CO)c(C)c4CCC(=O)O)C(CCC(=O)O)=C3C", "result": "<60 µg/mL"}
{"structure": "O=C(O)C[C@H]1C(=O)O[C@H]2[C@H](OC(=O)c3cc(O)c(O)c(O)c3)[C@@H](OC(=O)c3cc(O)c(O)c4c3[C@H]1[C@H](O)C(=O)O4)[C@H](OC(=O)c1cc(O)c(O)c(O)c1)O[C@@H]2COC(=O)c1cc(O)c(O)c(O)c1", "method": "fluorescence", "result": "0.2 µM"}
{"structure": "C=Cc1c(C)c2cc3c(C=C)c(C)c(cc4nc(cc5nc(cc1[nH]2)C(C)=C5CCC(=O)O)C(CCC(=O)O)=C4C)n3C", "result": "<60 µg/mL"}
{"structure": "NC(=O)c1ccc(C(NC(=O)c2ccc(C(NC(=O)c3ccc(C(=O)C(=O)O)cc3)(NC(=O)c3ccc(C(=O)C(=O)O)cc3)C(=O)O)cc2)(NC(=O)c2ccc(C(NC(=O)c3ccc(C(=O)C(=O)O)cc3)(NC(=O)c3ccc(C(=O)C(=O)O)cc3)C(=O)O)cc2)C(=O)O)cc1", "method": "antigen", "result": "2 µg/mL"}
{"structure": "O=S(=O)(O)c1ccc(-c2c3nc(c(-c4ccc(S(=O)(=O)O)cc4)c4ccc([nH]4)c(-c4ccc(S(=O)(=O)O)cc4)c4nc(c(-c5ccc(S(=O)(=O)O)cc5)c5ccc2[nH]5)C=C4)C=C3)cc1", "result": ">60 µg/mL"}
{"structure": "O=C1O[C@@H]2[C@@H](OC(=O)c3cc(O)c(O)c(O)c3-c3c1cc(O)c(O)c3O)[C@@H](O)O[C@@H]1COC(=O)c3cc(O)c(O)c(O)c3-c3c(O)c(O)c4oc(=O)c5c(c(O)c(O)c6oc(=O)c3c4c65)-c3c(cc(O)c(O)c3O)C(=O)O[C@@H]21", "method": "fluorescence", "result": "0.14 µM"}

Again, the opening 2 rows:

structure,strain or isolate,method,setting,result
O=C(C(=O)N1CCN(C(=O)c2ccccc2)CC1)c1c[nH]c2ccccc12,YU2,ELISA,-,<1 µM
CCCCCCCCC[C@H]1CC2CCC3C(C(=O)OCCCCN=C(N)N)[C@@H](C)N=C(N1)N23,-,ELISA,-,72 µM